Source: patent US10570176B2 (priority 2015, dated 2020)

Assay: peptide synthesis
Conditions: whole synthesis, HPLC (Agela C18 column)

G[dS][dA][dV][dM][dF][dS][dS][dK][dE][dR]G
purity (crude or final not stated): 97.2%

Non-standard residues stand in square brackets, D forms with d. No end group written: not given here.
